The test has as its target Human immunodeficiency virus type 1 protease (Human immunodeficiency virus 1, UniProt Q72874). The test can be described thus: Binding affinity against HIV-Protease was determined.

In ChEMBL document CHEMBL1136822, “Synthesis, antiviral activity and pharmacokinetics of P1/P1' substituted 3-aminoindazole cyclic urea HIV protease inhibitors” (Bioorg Med Chem Lett, 2003) one finds Ki data, which are given here for 1 compound.

SMILES strings stand for the structures.

On to `Nc1n[nH]c2ccc(CN3C(=O)N(Cc4ccccc4)[C@H](Cc4ccccc4)[C@H](O)[C@@H](O)[C@H]3Cc3ccccc3)cc12`, for which affinity was put at a Ki of 0.031 nM.

As a reminder, the Ki is a measure of affinity in units of concentration, obtained from inhibition or displacement. Lower therefore signals tighter binding.
